Source: PubChem BioAssay AID1259414 (Drosophila RNAi Screening Center, 2018)
Aim: 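Host factors increasing or decreasing Wolbachia levels in cultured fly cells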 (primary screen). Cells: Drosophila JW18 cells infected with Wolbachia. Reagent: long dsRNA against Drosophila genes, 0.25 µg dsRNA per well of a 384-well plate. Timing: 5 days. Treatment: cells persistently infected with Wolbachia before knock-down; no added drug. Read-out: 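Imaged fluorescence in situ signal for Wolbachia 23S rRNA per DAPI-counted host cell, given as a robust z-score within each plate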. Reading the numbers: Wolbachia per cell robust z: higher = more Wolbachia per host cell than the plate typical. Hit rule: 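Active if absolute robust z reaches 1.5 in two or more of three replicates, leaving out multi- or no-target dsRNAs, genes unexpressed in JW18 and A1 wells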.
The deposit covers about 24,000 reagents; shown is a random part of those with a known target gene and a result. In the full data, about 1,210 (5%) are marked active. 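Inactive calls also include excluded dsRNAs with several or no targets, genes unexpressed in JW18, and well A1, regardless of score.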 Reagents against one gene are numbered here.

{"Target gene": "CG32847", "reagent no.": 1, "Wolbachia per cell robust z, rep 1": -0.933, "Wolbachia per cell robust z, rep 2": -1.89, "Wolbachia per cell robust z, rep 3": 0.123, "call": "inactive"}
{"Target gene": "Art4", "reagent no.": 1, "Wolbachia per cell robust z, rep 1": 0.00377, "Wolbachia per cell robust z, rep 2": -2.59, "Wolbachia per cell robust z, rep 3": 0.519, "call": "inactive"}
{"Target gene": "chas", "reagent no.": 1, "Wolbachia per cell robust z, rep 1": 0.426, "Wolbachia per cell robust z, rep 2": 0.163, "Wolbachia per cell robust z, rep 3": 0.608, "call": "inactive"}
{"Target gene": "chas", "reagent no.": 2, "Wolbachia per cell robust z, rep 1": -0.925, "Wolbachia per cell robust z, rep 2": -2.59, "Wolbachia per cell robust z, rep 3": -5.38, "call": "active"}
{"Target gene": "chas", "reagent no.": 3, "Wolbachia per cell robust z, rep 1": -2.49, "Wolbachia per cell robust z, rep 2": -0.871, "Wolbachia per cell robust z, rep 3": -1.47, "call": "inactive"}
{"Target gene": "CG18273", "reagent no.": 1, "Wolbachia per cell robust z, rep 1": -4.51, "Wolbachia per cell robust z, rep 2": 1.07, "Wolbachia per cell robust z, rep 3": 0.728, "call": "inactive"}
{"Target gene": "CG18273", "reagent no.": 2, "Wolbachia per cell robust z, rep 1": -3.78, "Wolbachia per cell robust z, rep 2": 0.073, "Wolbachia per cell robust z, rep 3": -0.191, "call": "inactive"}
{"Target gene": "CG3847", "reagent no.": 1, "Wolbachia per cell robust z, rep 1": -3.88, "Wolbachia per cell robust z, rep 2": -1.1, "Wolbachia per cell robust z, rep 3": -0.212, "call": "inactive"}
{"Target gene": "CG3847", "reagent no.": 2, "Wolbachia per cell robust z, rep 1": 1.49, "Wolbachia per cell robust z, rep 2": 1.44, "Wolbachia per cell robust z, rep 3": 0.69, "call": "inactive"}
{"Target gene": "CG3847", "reagent no.": 3, "Wolbachia per cell robust z, rep 1": -0.0939, "Wolbachia per cell robust z, rep 2": -0.175, "Wolbachia per cell robust z, rep 3": 0.686, "call": "inactive"}
{"Target gene": "CG5966", "reagent no.": 1, "Wolbachia per cell robust z, rep 1": -0.533, "Wolbachia per cell robust z, rep 2": -12, "Wolbachia per cell robust z, rep 3": -7.08, "call": "inactive"}
{"Target gene": "CG14423", "reagent no.": 1, "Wolbachia per cell robust z, rep 1": -0.0613, "Wolbachia per cell robust z, rep 2": -0.349, "Wolbachia per cell robust z, rep 3": 0.709, "call": "inactive"}
{"Target gene": "CG14423", "reagent no.": 2, "Wolbachia per cell robust z, rep 1": 1.27, "Wolbachia per cell robust z, rep 2": 0.706, "Wolbachia per cell robust z, rep 3": 0.931, "call": "inactive"}
{"Target gene": "wa-cup", "reagent no.": 1, "Wolbachia per cell robust z, rep 1": -0.151, "Wolbachia per cell robust z, rep 2": -3.34, "Wolbachia per cell robust z, rep 3": -1.13, "call": "inactive"}
{"Target gene": "CG3308", "reagent no.": 1, "Wolbachia per cell robust z, rep 1": -0.744, "Wolbachia per cell robust z, rep 2": 0.109, "Wolbachia per cell robust z, rep 3": 2.92, "call": "inactive"}
{"Target gene": "CG3437", "reagent no.": 1, "Wolbachia per cell robust z, rep 1": -0.161, "Wolbachia per cell robust z, rep 2": -0.406, "Wolbachia per cell robust z, rep 3": 0.926, "call": "inactive"}
{"Target gene": "CG3437", "reagent no.": 2, "Wolbachia per cell robust z, rep 1": 0.5, "Wolbachia per cell robust z, rep 2": 1.17, "Wolbachia per cell robust z, rep 3": 1.37, "call": "inactive"}
{"Target gene": "CG15576", "reagent no.": 1, "Wolbachia per cell robust z, rep 1": -0.466, "Wolbachia per cell robust z, rep 2": 0.07, "Wolbachia per cell robust z, rep 3": -0.122, "call": "inactive"}
{"Target gene": "CG14331", "reagent no.": 1, "Wolbachia per cell robust z, rep 1": 0.024, "Wolbachia per cell robust z, rep 2": 1.08, "Wolbachia per cell robust z, rep 3": -0.101, "call": "inactive"}
{"Target gene": "CG17104", "reagent no.": 1, "Wolbachia per cell robust z, rep 1": -0.461, "Wolbachia per cell robust z, rep 2": 0.21, "Wolbachia per cell robust z, rep 3": 0.313, "call": "inactive"}
{"Target gene": "CG17104", "reagent no.": 2, "Wolbachia per cell robust z, rep 1": 0.331, "Wolbachia per cell robust z, rep 2": 0.509, "Wolbachia per cell robust z, rep 3": 1.82, "call": "inactive"}
{"Target gene": "CG18418", "reagent no.": 1, "Wolbachia per cell robust z, rep 1": -3.34, "Wolbachia per cell robust z, rep 2": 1.38, "Wolbachia per cell robust z, rep 3": -0.276, "call": "inactive"}
{"Target gene": "CG18418", "reagent no.": 2, "Wolbachia per cell robust z, rep 1": -1.68, "Wolbachia per cell robust z, rep 2": 1.53, "Wolbachia per cell robust z, rep 3": -0.536, "call": "inactive"}
{"Target gene": "Eaf6", "reagent no.": 1, "Wolbachia per cell robust z, rep 1": -1.04, "Wolbachia per cell robust z, rep 2": -0.974, "Wolbachia per cell robust z, rep 3": -0.731, "call": "inactive"}

In a second layout: 4 of the entries above.
| Target gene | reagent no. | Wolbachia per cell robust z, rep 1 | Wolbachia per cell robust z, rep 2 | Wolbachia per cell robust z, rep 3 | call |
| --- | --- | --- | --- | --- | --- |
| CG18273 | 2 | -3.78 | 0.073 | -0.191 | inactive |
| CG3847 | 1 | -3.88 | -1.1 | -0.212 | inactive |
| CG3847 | 2 | 1.49 | 1.44 | 0.69 | inactive |
| CG3847 | 3 | -0.0939 | -0.175 | 0.686 | inactive |
